PubChem BioAssay AID624099 – ICCB-Longwood, 2012
The whole screen tested about 21,000 reagents; shown is a random part of them. Of all reagents, 497 (2.4%) got an active call. 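Higher z means weaker E2 silencing; only reporter increases were scored, and knock-downs that hurt cell survival may mask genuine repressor factors.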 Unmarked entries are inactive.

Test: 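Host factors E2 relies on to silence an HPV18 LCR reporter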 (primary screen)
System: human C33A cervical carcinoma cells (HPV-negative) stably expressing BPV1 E2 and an HPV18 LCR luciferase reporter
Reagent: siRNA pool against human genes, 40 nM
Duration: 72 h
Detection: 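Per-well luciferase luminescence, z-scored on each plate against the plate mean and SD with control wells left out, then averaged across three replicate plates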
Scale: mean z-score and z-score: higher = stronger reporter signal, weaker E2 silencing
Rule for the call: 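Hit if mean z-score reaches 2 and two or more of three replicate z-scores also reach 2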

no.	gene knocked down	mean z-score	z-score, replicate A	z-score, replicate B	z-score, replicate C
1	FGF9	0.41	0.33	0.58	0.32
2	PTDSS2	1.38	1.3	1.27	1.58
3	TPRX1	-0.24	0.06	-0.36	-0.42
4	TBXAS1	-0.11	-0.66	-0.17	0.49
5	ZC3H8	0.21	0.52	0.16	-0.07
6	SKIL	0.64	0.58	0.65	0.7
7	C3orf62	0.54	0.54	0.21	0.87
8	CCDC163	-0.66	-0.72	-0.77	-0.48
9	PRSS48	-1.04	-1.28	-0.95	-0.88
10	PKDREJ	0.47	0.58	0.29	0.56
11	ACTMAP	-0.57	-0.46	-0.54	-0.71
12	LOC391784 (retired record)	-0.69	-0.05	-1.11	-0.9
13	SAMD15	0.84	0.76	0.79	0.98
14	TNFAIP8	-0.57	-0.88	-0.37	-0.48
15	LINC02551	-1.31	-1.08	-1.36	-1.49

Part of the list above, reformatted.
| gene knocked down | mean z-score | z-score, replicate A | z-score, replicate B | z-score, replicate C |
| --- | --- | --- | --- | --- |
| CCDC163 | -0.66 | -0.72 | -0.77 | -0.48 |
| PRSS48 | -1.04 | -1.28 | -0.95 | -0.88 |
| PKDREJ | 0.47 | 0.58 | 0.29 | 0.56 |
| ACTMAP | -0.57 | -0.46 | -0.54 | -0.71 |

The list goes on.
no.	gene knocked down	mean z-score	z-score, replicate A	z-score, replicate B	z-score, replicate C
16	NDST4	0.69	0.16	0.94	0.96
17	WDR97	0.15	0.02	0.05	0.37
18	EIF4G2	-1.7	-1.37	-1.76	-1.95
19	HLA-DRB1	0.71	0.91	0.69	0.54
20	MLC1	0.64	0.43	0.61	0.87
21	LOC400705 (retired record)	0.6	0.89	0.08	0.82
22	PIAS4	-0.25	-0.2	-0.11	-0.43
23	MORF4L1	-0.1	0.01	-0.18	-0.13
